According to patent US20200123233A1, “Amino acid sequences directed against envelope proteins of a virus and polypeptides comprising the same for the treatment of viral diseases” (published 2020):

Target: authentic influenza antigen of A/PR/8/34 (ATCC VR-1469), serotype H1N1 (influenza A virus A/PR/8/34 (H1N1), UniProt P03452 18-565)

| Binder | Extinction at 450 nm in ELISA |
| --- | --- |
| IV153 (VHH) VHH: QVQLQESGGGLVQAGGSLRLSCAFSGDTFSFYTLGWFRQAPGKEREFVAATSNIGGYIYYGDSVKGRFTISGDNAKNTVYLQMSSLKPEDTAVYYCAATLRSGSMWYQNVRVNDNPYWGQGTQVTVSS | 0.045 OD450 |
| IV157 (VHH) VHH: QVQLQQSGGGLVQPGGSLRLSCAASRSDISFNPMGWYRQAPGKQRELVATISNGGTTNYADSVKGRFTISQDNAKTTVYLQMNSLKPEDTAVYYCNGRGPRYATTGWYTDDYWGQGTQVTVSS | 0.046 OD450 |
| IV160 (VHH) VHH: QVQLQESGGGLVQPGGSLRLSCAASRSDISFNPMGWYRQAPGKQRELVATISNGGTTNYADSVKGRFTISQDNAKTTVYLQMNSLKPEDTAVYYCNGRGPRYATTGWYTDDYWGQGTQVTVSS | 0.052 OD450 |
| IV156 (VHH) VHH: QVQLQQSGGGLVQPGGSLRLSCAASRSGFSFNPMGWYRQAPGKQRELVATITSGGTTNYADSVKGRFTISTDNAKTTVFLQMNSLKPEDTAVYYCNGRGPRRGTAGWFTDDYWGQGTQVTVSS | 0.048 OD450 |
| IV125 (VHH) VHH: QVQLQQSGGGLVQAGGSLRLSCAASGSAFSINTMGWYRQAPGKQRELVAVISSGSGGSTNYADSVKGRFTISRDNAKNTVYLHMNSLKPEDTAVYYCNAGSRFNPFGSAYDYWGQGTQVTVSS | 0.461 OD450 |
| IV124 (VHH) VHH: QVQLQESGGGLVQPGGSLRLSCAASGSIFSINRMGWYRQAPGKQRELVAAITYGGSTNYADSVKGRFTISRDNAKNTVYLQMNSLKPEDTAVYYCNAGSTYSPFGDKYDYWGQGTQVTVSS | 0.413 OD450 |
| IV146 (VHH) VHH: QVQLQQSGGGLVQAGGSLRLSCAASGSSFSINAMGWYRQAPGKQRELVAAISSGGSANYADSVKGRFTISRDNAKNTVYLQMNSLKPEDTAVYYCNAGSRFNPFGSAYDYWGQGTQVTVSS | 0.299 OD450 |
| IV144 (VHH) VHH: QVQLQQSGGGLVQAGGSLRLSCAASGNIISFNPMGWHRQAPGKQRELVASITSGGSISYVDSVKGRFTISRDSAKNTIYLQMNSLKPEDTAVYFCAGEGPRRRGSTWYTDTYWGQGTQVTVSS | 0.12 OD450 |

Target: authentic influenza antigen of strain A/PR/8/34 (ATCC VR-1469), serotype H1N1 (influenza A virus A/PR/8/34 (H1N1), UniProt P03452 18-565)

| Binder | Extinction at 450 nm in ELISA |
| --- | --- |
| IV34 (VHH) VHH: QVQLQESGGGLVQTGGSLRLSCAASGGTFGGYAMAWFRQAPGKGREFVASVIWNGGTTNYLDSVKDRFTVSRDMANNTMYLQMNSLKPEDTAVYICGAASGYRSTDRLSEPGWVNYWGQGTQVTVSS | 0.05 extinction at 450 nm |
| IV29 (VHH) VHH: QVQLQESGGGLVQAGGSLRLSCVASGRTLDNYAMGWFRQAPGAEREFVGAISANGEDTQYTESVQGRFTISKDNAKSTVYLDMNSLKPEDTAVYYCAADRKTLTYYTSRLRSRYEYWGQGTQVTVSS | 0.053 extinction at 450 nm |
| IV31 (VHH) VHH: QVQLQQSGGGLVQAGGSLRLSCAASGRTLNNYAMGWFRQAPGAEREFVGAISASGDSTQYTESVQGRFTISKDNAKSTVVLDMNSLKPEDTAVYYCAADGKTLTFYTSRLRSRYDYWGQGTQVTVSS | 0.045 extinction at 450 nm |
